Measured values from several laboratories, pooled; numbers as filed in NIAID ChemDB.

Shared fields: growth or infection tests; agent: Mycobacterium avium intracellulare

An empty or dashed field is not shown. ECn: concentration that inhibits the pathogen or its effect by n%. MIC50, MIC90 and the like: level of inhibition, or share of isolates inhibited. Lines come from different laboratories, so protocols vary.

compound	strain	read-out	method	result
CN1CCN(c2c(F)cc3c(=O)c(C(=O)O)cn(CCF)c3c2F)CC1	N-260	MIC90		100 µg/mL
CCc1cc(C(C)(C)C)nc2c(NC(C)CCCN)cc(OC)c(Oc3cccc(C(F)(F)F)c3)c12		EC50		20 µg/mL
COc1cccc(C(=O)Oc2c(OC)cc3ccnc4c3c2N(C)C=C4)c1		EC50		10 µg/mL
CN1CCN(c2c(F)cc3c(=O)c(C(=O)O)cn(CCF)c3c2F)CC1		MIC90		50 µg/mL
COc1cc2ccnc3c2c(c1OC(=O)c1cc(F)ccc1F)N(C)C=C3		EC50		>15 µg/mL
CO[C@H]1/C=C/O[C@@]2(C)Oc3c(C)c(=O)c4c(O)c(c5oc6cc(N7CCCC7)ccc6nc5c4c3C2=O)NC(=O)/C(C)=C\C=C\[C@H](C)[C@H](O)[C@@H](C)[C@@H](O)[C@@H](C)[C@H](OC(C)=O)[C@@H]1C		MIC90		2.5 µg/mL
COc1cc2ccnc3c2c(c1OC(=O)c1ccc(CCl)cc1)N(C)C=C3		EC50		5 µg/mL
COc1c(O)c2c(=O)cc(OC)c3c4c(OC)cc(=O)c5c(O)c(OC)c6c(c(c1CC(C)(O)C6C(C)=O)c23)c54		MBC		>100 µg/mL
O/N=C/c1cc[n+](Cc2cc(C[n+]3ccc(/C=N/O)cc3)on2)cc1.[Br-].[Br-]		EC50	resazurin	>20 µg/mL
CC[C@H]1OC(=O)[C@H](C)[C@@H](OC(=O)Cc2ccncc2)[C@H](C)[C@@H](O[C@@H]2O[C@H](C)C[C@H](N(C)C)[C@H]2O)C(C)(O)C[C@@H](C)/C(=N\OCCCOc2ccccc2)[C@H](C)[C@@H](O)[C@]1(C)O	20066 (clarithromycin-susceptible)	MIC		12.5 µg/mL
NC(=O)c1cc[n+](Cc2ccc(C[n+]3ccc(C(N)=O)cc3)o2)cc1.[Br-].[Br-]		EC50	resazurin	>20 µg/mL
COc1cc2ccnc3c2c(c1OC(=O)c1cccc(F)c1F)N(C)C=C3		EC50		>15 µg/mL
CC[C@H]1OC(=O)[C@H](C)[C@@H](O[C@H]2C[C@@](C)(OC)[C@@H](OC(C)=O)[C@H](C)O2)[C@H](C)[C@@H](O[C@@H]2O[C@H](C)C[C@H](N(C)C)[C@H]2O)C(C)(O)C[C@@H](C)/C(=N\OCCSc2ccccc2)[C@H](C)[C@@H](O)[C@]1(C)O	20066 (clarithromycin-susceptible)	MIC		3.13 µg/mL
C/C=C/c1ccc(OC(=O)/C(C)=C/C)cc1	ATCC 19709	MBC		>20 µg/mL
CC[C@H]1OC(=O)[C@H](C)[C@@H](O)[C@H](C)[C@@H](O[C@@H]2O[C@H](C)C[C@H](N(C)C)[C@H]2O)C(C)(O)C[C@@H](C)/C(=N\OCCCOc2ccccc2)[C@H](C)[C@@H](O)[C@]1(C)O	20066 (clarithromycin-susceptible)	MIC		>50 µg/mL
CCCCCCCCOC(=O)c1cnccn1	ATCC 13950	MBC		200 µg/mL
COc1cc2ccnc3c2c(c1OC(=O)c1ccc(F)c(F)c1)N(C)C=C3		EC50		5.5 µg/mL
C/C=C(/C)C(=O)Oc1ccc(OC)cc1C1OC1C	ATCC 19709	MBC		>20 µg/mL
CC1COc2c(C3(N)CC3)c(F)cc3c(=O)c(C(=O)O)cn1c23	31 strains	MIC50		>100 µg/mL
COc1c(N2CCNC(C)C2)c(F)cc2c(=O)c(C(=O)O)cn(C3CC3)c12	31 strains	MIC50		6.25 µg/mL
Cc1cc(C[n+]2cccc(C=NO)c2)on1.[Br-]		EC50	resazurin	>20 µg/mL
CC(C)(C)OCOC(=O)c1cnccn1	ATCC 13950	MBC		100 µg/mL
CC[C@H]1OC(=O)[C@H](C)[C@@H](OC2C[C@@](C)(OC)[C@@H](O)[C@H](C)O2)[C@H](C)[C@@H](O[C@@H]2O[C@H](C)C[C@H](N(C)C)[C@H]2O)C(C)(O)C[C@@H](C)/C(=N\OCCCCOc2ccccc2)[C@H](C)[C@@H](O)[C@]1(C)O	20066 (clarithromycin-susceptible)	MIC		3.13 µg/mL
CCCCc1ccc(C(=O)Oc2c(OC)cc3ccnc4c3c2N(C)C=C4)cc1		EC50		0.5 µg/mL
CC[C@H]1OC(=O)[C@H](C)[C@@H](O[C@H]2C[C@@](C)(OC)[C@@H](OC(C)=O)[C@H](C)O2)[C@H](C)[C@@H](O[C@@H]2O[C@H](C)C[C@H](N(C)C)[C@H]2O)C(C)(O)C[C@@H](C)/C(=N\OCCC2CCCCC2)[C@H](C)[C@@H](O)[C@]1(C)O	20066 (clarithromycin-susceptible)	MIC		3.13 µg/mL
COc1cc2ccnc3c2c(c1OC(=O)CSc1ccccc1)N(C)C=C3		EC50		>15 µg/mL
O/N=C/c1ccc[n+](Cc2ccc(C[n+]3cccc(/C=N/O)c3)s2)c1.[Cl-].[Cl-]		EC50	resazurin	>20 µg/mL
CO[C@H]1/C=C/O[C@@]2(C)Oc3c(C)c(O)c4c(O)c(c5c(c4c3C2=O)NC2(CCN(CC(C)C)CC2)N=5)=NC(=O)/C(C)=C\C=C\[C@H](C)[C@H](O)[C@@H](C)[C@@H](O)[C@@H](C)[C@H](OC(C)=O)[C@@H]1C	21 strains	MIC90		0.5 µg/mL
CC[C@H]1OC(=O)[C@H](C)[C@@H](OC2C[C@@](C)(OC)[C@@H](OC(=O)Cc3ccccc3)[C@H](C)O2)[C@H](C)[C@@H](O[C@@H]2O[C@H](C)C[C@H](N(C)C)[C@H]2O)C(C)(O)C[C@@H](C)/C(=N\OCCCOc2ccccc2)[C@H](C)[C@@H](O)[C@]1(C)O	20066 (clarithromycin-susceptible)	MIC		0.78 µg/mL
CO[C@H]1/C=C/O[C@@]2(C)Oc3c(C)c(=O)c4c(O)c(c5oc6cc(N7CCCCC7)ccc6nc5c4c3C2=O)NC(=O)/C(C)=C\C=C\[C@H](C)[C@H](O)[C@@H](C)[C@@H](O)[C@@H](C)[C@H](OC(C)=O)[C@@H]1C		MIC50		0.6 µg/mL

3 of the rows above, restated:

compound	strain	read-out	method	result
COc1c(O)c2c(=O)cc(OC)c3c4c(OC)cc(=O)c5c(O)c(OC)c6c(c(c1CC(C)(O)C6C(C)=O)c23)c54		MBC		>100 µg/mL
C/C=C/c1ccc(OC(=O)/C(C)=C/C)cc1	ATCC 19709	MBC		>20 µg/mL
CC(C)(C)OCOC(=O)c1cnccn1	ATCC 13950	MBC		100 µg/mL